Results of unrelated studies side by side (data: NIAID ChemDB).

All rows: growth or infection tests; organism: HIV-1; read by: MTT; endpoint: EC50

Blank or dashed fields: not listed here. Lines come from different laboratories, so protocols vary. ECn: concentration that inhibits the pathogen or its effect by n%.

smiles,cells,mutations,strain or isolate,value
CN1CSC([C@H]2[C@H](O)[C@H](n3ccc(=O)[nH]c3=O)O[C@@H]2CO)SC1,MT-4,-,-,>100 µM
Cc1ccccc1CN1CCC(Nc2nc(Oc3c(C)cc(/C=C/C#N)cc3C)c3sccc3n2)CC1,MT-4,-,RES056,0.829 µM
Nc1c2ccccc2nc2ccccc12,ACH2,-,Latently infected cell,>50 µM
C=CCn1c(=O)c(C)cn([C@H]2C[C@H](N=[N+]=[N-])[C@@H](CO)O2)c1=O,MT-4,-,IIIB,0.9 µM
C=CS(=O)(=O)N1CCCC(NS(=O)(=O)c2c(C(N)=O)[nH]c3ccc(Br)cc23)C1,MT-4,-,IIIB,>40.7 µM
Cc1ccnc2c1NC(=O)c1cccnc1N2C1CC1,MT-4,-,IIIB,0.05 µM
Cc1cc(C#N)cc(C)c1Oc1ccnc(S(=O)(=O)CC(=O)Nc2ccc(C#N)cc2)n1,MT-4,Y188L,IIIB,0.031 µM
O=Cc1coc2ccc(F)cc2c1=O,HTLV-I-bearing MT-4,-,IIIB,>40 µg/mL
Cn1c(=O)cc(Oc2nc(Nc3ccc(C#N)cc3)nc(Nc3nc4ccc([N+](=O)[O-])cc4s3)n2)c2ccccc21,-,-,IIIB,>69.28 µg/mL
O=c1ccn([C@@H]2OC3COC(O)C3[C@@H]2O)c(=O)[nH]1,MT-4,-,-,>100 µM
COc1cc2c(c(OC)c1OC)-c1c(cc(OC(C)=O)c(OC)c1OC)C[C@H](C)[C@H](C)[C@H]2OC,C8166,-,-,1.82 µg/mL
CCn1cc(C(=O)O)c(=O)c2cc(F)c(N3CCN(CN4C(=O)O[C@](C#CC5CC5)(C(F)(F)F)c5cc(Cl)ccc54)CC3)c(F)c21,CEM,-,IIIB,0.00258 µM
Cc1cc(C#N)cc(C)c1Oc1nc(Nc2ccc(C#N)cc2)ncc1SCC(N)=O,MT-4,L100I,-,0.0547 µM
Cn1c(=O)cc(Oc2nc(Nc3ccc(C#N)cc3)nc(Nc3nc4ccccc4s3)n2)c2ccccc21,-,-,IIIB,>82.93 µg/mL
Cc1cc(C#N)cc(C)c1Oc1nc(NC2CCC(NCc3cccc(C(F)(F)F)c3)CC2)nc2ccsc12,MT-4,NNRTI-resistant (RT E138K),IIIB,>707 µM
O=c1ccn([C@@H]2O[C@H](CO)[C@@H](CO)[C@@H]2O)c(=O)[nH]1,MT-4,-,-,>100 µM
CC(C)CC(NS(=O)(=O)c1ccc(Cl)cc1)c1nnc(NS(=O)(=O)c2ccc(Br)cc2)s1,MT-4,-,IIIB,>57.63 µM
COc1c(N2CCN(CN3C(=O)O[C@](C#CC4CC4)(C(F)(F)F)c4cc(Cl)ccc43)CC2)c(F)cc2c(=O)c(C(=O)O)cn(C3CC3)c12,CEM,-,IIIB,0.0024 µM
O=C(COc1ccc2ccccc2c1)NCC(=O)NNC(=S)NCc1ccccc1,MT-4,-,IIIB,>67 µg/mL
Cc1cc(-c2ccc(C#N)cc2)cc(C)c1Oc1ccnc(S(=O)(=O)C(C)C(=O)NCc2ccc(Cl)cc2)n1,MT-4,-,IIIB,>12.18 µM
Cc1cn([C@H]2C[C@H](N=[N+]=[N-])[C@@H](CO)O2)c(=O)n(Cc2ccccc2)c1=O,MT-4,-,IIIB,45 µM
Cc1cc(/C=C/C#N)cc(C)c1Oc1nc(NC2CCN(Cc3ccncc3)CC2)nc2ccsc12,MT-4,NNRTI-resistant (RT Y188L),IIIB,0.0322 µM
O=c1ccoc2ccccc12,HTLV-I-bearing MT-4,-,IIIB,>200 µg/mL
Cc1cc(C#N)cc(C)c1Oc1nc(NC2CCC(NCc3ccc(F)cc3)CC2)nc2ccsc12,MT-4,NNRTI-resistant (RT Y181C),IIIB,>2.77 µM
Cc1cn([C@H]2C[C@H](N=[N+]=[N-])[C@@H](CO)O2)c(=O)[nH]c1=O,MT-4,-,IIIB,0.01822 µM
O=C(COc1ccc2ccccc2c1)NCC(=O)NNC(=S)Nc1ccc(Cl)cc1,MT-4,-,IIIB,>11.2 µg/mL
Cn1c(=O)cc(Oc2nc(Nc3ccc(C#N)cc3)nc(Oc3cc(=O)n(C)c4ccccc34)n2)c2ccccc21,-,-,IIIB,>79.48 µg/mL
C[C@H](CS)C(=O)N1CCC[C@@H]1c1nc2c([N+](=O)[O-])cccc2[nH]1,MT-4,-,IIIB,>11.27 µg/mL
COc1ccc(S(=O)(=O)N(CC(C)C)C[C@@H](O)[C@H](Cc2ccccc2)NC(=O)OCO[C@H]2C[C@H]3OCC4(CC[C@H](OC)O4)[C@H]3C2)cc1,MT-2,-,LAI,0.38 µM
COc1ccc2occ(C=O)c(=O)c2c1,HTLV-I-bearing MT-4,-,IIIB,>200 µg/mL
Cc1ccc(S(=O)(=O)Sc2nnc(CNC(=O)COc3ccc4ccccc4c3)n2-c2ccccc2)cc1,MT-4,-,IIIB,>12.7 µg/mL
COc1ccc(N2CCN(CN3C(=O)O[C@](C#CC4CC4)(C(F)(F)F)c4cc(Cl)ccc43)CC2)cc1,CEM,-,IIIB,0.00669 µM
COc1cc(Cc2[nH]c(=O)[nH]c(=O)c2C(C)C)cc(OC)c1,MT-4,-,IIIB,>100 µM
CO[C@@]12C[C@]3(C)CCC[C@H](C)[C@@]3(O)CC1=C(C)C(=O)O2,MT-4,-,IIIB,0.044 µg/mL
CCC(O)(c1cccc(OC)c1)c1c(C)c(=O)[nH]c(=O)n1COCc1ccccc1,MT-4,-,IIIB,>109 µM
CCCCn1c(=O)c(C)cn([C@H]2C[C@H](N=[N+]=[N-])[C@@H](CO)O2)c1=O,MT-4,-,IIIB,6.2 µM
Nc1cccc2cc3ccccc3nc12,ACH2,-,Latently infected cell,>50 µM
COc1ccc(S(=O)(=O)N(CC(C)C)C[C@@H](O)[C@H](Cc2ccccc2)NC(=O)OCO[C@H]2C[C@H]3OC[C@@]4(CNC(=O)O4)[C@H]3C2)cc1,MT-2,-,LAI,0.021 µM
CC1CCNC2CCCCC2NC(C)CCNC2CCCCC2N1,MT-4,-,ROD,134 µM
O=Cc1coc2c(Cl)cc(Cl)cc2c1=O,HTLV-I-bearing MT-4,-,IIIB,>200 µg/mL
C[C@H](CS)C(=O)N1CCC[C@@H]1c1nc2ncnc(N)c2[nH]1,MT-4,-,IIIB,>24.7 µg/mL
CCCCOP(=O)(CN[C@@H](Cc1ccccc1)[C@H](O)CN(CC(C)C)S(=O)(=O)c1ccc(OC)cc1)OCCCC,MT-4,-,RES056,>13.08 µg/mL
COc1cc2c(c(OC)c1O)-c1c(cc(O)c(OC)c1OC)C[C@@H](C)[C@@H](C)C2,C8166,-,-,1.8 µg/mL
Cc1cc(C#N)cc(C)c1Oc1nc(Nc2ccc(C#N)cc2)ncc1SCC(=O)NCCN1CCOCC1,MT-4,Y188L,-,0.0451 µM
O=C(COc1ccc2ccccc2c1)NCC(=O)NNC(=S)Nc1ccc(Br)cc1,MT-4,-,IIIB,>31.2 µg/mL
CCn1cc(C(=O)O)c(=O)c2cc(F)c(N3CCN(CN4C(=O)O[C@](C#CC5CC5)(C(F)(F)F)c5cc(Cl)ccc54)CC3)cc21,CEM,-,IIIB,0.00379 µM
Cc1cc(C#N)cc(C)c1Oc1nc(Nc2ccc(C#N)cc2)ncc1SCC(=O)NCCN1CCN(C(=O)OC(C)(C)C)CC1,MT-4,RES056,-,0.4535 µM
CC1=[N+](C)N(c2ccccc2)C(=O)C1Nc1nc(Nc2ccc(C#N)cc2)nc(Oc2cc(=O)n(C)c3ccccc23)n1,-,-,IIIB,>125 µg/mL
O=c1ccn([C@H]2C[C@H](CO)[C@@H](CO)O2)c(=O)[nH]1,MT-4,-,-,>100 µM
Cc1cc(/C=C/C#N)cc(C)c1Oc1nc(NC2CCN(Cc3cccc(C(N)=O)c3)CC2)nc2ccsc12,MT-4,NNRTI-resistant (RT Y181C),IIIB,0.00628 µM
O=C1O[C@](C#CC2CC2)(C(F)(F)F)c2cc(Cl)ccc2N1CN1CCN(c2ccccn2)CC1,CEM,-,IIIB,0.0121 µM
CCC(O)(c1ccc(C)cc1)c1c(C)c(=O)[nH]c(=O)n1COCc1ccccc1,MT-4,-,IIIB,>6.82 µM
Cc1cn([C@H]2C[C@H](N=[N+]=[N-])[C@@H](CO)O2)c(=O)[nH]c1=O,MT-4,-,IIIB,0.0019 µM
C=CCNC(=O)CSc1cnc(Nc2ccc(C#N)cc2)nc1Oc1c(C)cc(C#N)cc1C,MT-4,F227L V106A,-,0.1775 µM
Cc1cc(-c2ccc(C#N)cc2)cc(C)c1Oc1ccnc(S(=O)(=O)CC(=O)Nc2ccc(Br)cc2)n1,MT-4,L100I,IIIB,0.049 µM
O=C(COc1ccc2ccccc2c1)NCC(=O)NNC(=S)Nc1ccccc1,MT-4,-,IIIB,>67.9 µg/mL
COC(=O)/C=C/c1cn([C@@H]2O[C@H](CO)[C@@H](CO)[C@@H]2O)c(=O)[nH]c1=O,MT-4,-,-,>100 µM
CC(CS)C(=O)N1CCC[C@@H]1C(=O)NCC(=O)N1CCN(c2nc3ccccc3s2)CC1,MT-4,-,IIIB,>1.21 µg/mL
C=C(c1ccccc1)c1c(C)c(=O)[nH]c(=O)n1COCc1ccccc1,MT-4,Y181C,IIIB,>133 µM
Cc1cn([C@@H]2O[C@H](CO)[C@@H](CO)[C@@H]2O)c(=O)[nH]c1=O,MT-4,-,-,>100 µM
Cc1cccc(C(C)c2c(C(C)C)c(=O)[nH]c(=O)n2COCc2ccccc2)c1,MT-4,L100I,IIIB,1.07 µM
Nc1ccn([C@@H]2CS[C@H](CO)O2)c(=O)n1,MT-4,-,IIIB,0.51 µM
Cc1ccnc2c1NC(=O)c1cccnc1N2C1CC1,MT-4,-,IIIB,0.24 µg/mL
Cc1cc(C#N)cc(C)c1Oc1nc(Nc2ccc(C#N)cc2)ncc1SCC(=O)NCC1CCCO1,MT-4,Y188L,-,0.042 µM
Cn1c(=O)cc(Oc2nc(Nc3ccc(C#N)cc3)nc(Sc3nnc(-c4ccncc4)o3)n2)c2ccccc21,-,-,IIIB,>68.75 µg/mL
Cc1cc(C#N)cc(C)c1Oc1nc(NC2CCN(Cc3ccc(S(C)(=O)=O)cc3)CC2)nc2sccc12,MT-4,NNRTI-resistant (RT Y181C),IIIB,0.00596 µM
CCc1c(Cc2cc(OC)cc(OC)c2)[nH]c(=O)[nH]c1=O,MT-4,Efavirenz-resistant (K103R + V179D + P225H),IIIB,>100 µM
Cn1c2ccccc2c(=O)c2c(O)cccc21,CEM,-,IIIB,>5.6 µg/mL
Cc1cc(C#N)cc(C)c1Oc1nc(Nc2ccc(C#N)cc2)ncc1SCC(=O)Nc1ccc(S(C)(=O)=O)cc1,MT-4,-,IIIB,0.0065 µM
Cc1cn([C@H]2C[C@H](N=[N+]=[N-])[C@@H](CO)O2)c(=O)n(C(C)C)c1=O,MT-4,-,IIIB,6.7 µM
COc1ccc(-n2c(CNC(=O)COc3ccc4ccccc4c3)n[nH]c2=S)cc1,MT-4,-,IIIB,>46.2 µg/mL
CCc1nc([N+](=O)[O-])c(N2CCN(C(=O)CSC[C@@H](C)C(=O)N3CCC[C@@H]3C(=O)O)CC2)n1Cc1ccccc1,MT-4,-,IIIB,>2.23 µg/mL
C=C1CC[C@]2(OC)OC(=O)C(C)=C2[C@@H]2[C@@H]1[C@@]13O[C@@]1(C[C@@H](C)[C@@H]3O)[C@H]1O[C@@]21C,MT-4,-,IIIB,0.002 µg/mL
COc1cc(Cc2[nH]c(=S)[nH]c(=O)c2C(C)C)cc(OC)c1,MT-4,Y181C,N119,>100 µM
COc1cc(OC)cc(C(C)(O)c2c(C)c(=O)[nH]c(=O)n2COCc2ccccc2)c1,MT-4,-,IIIB,>144 µM
Cc1cc(-c2ccc(C#N)cc2)cc(C)c1Oc1ccnc(S(=O)(=O)C(C)C(=O)Nc2ccc(Cl)cc2)n1,MT-4,-,IIIB,0.025 µM
O=c1[nH]c(=O)n([C@@H]2O[C@H](CO)[C@@H](CO)[C@@H]2O)cc1/C=C/Br,MT-4,-,-,>100 µM
Cc1ccccc1C(O)(c1c(C)c(=O)[nH]c(=O)n1COCc1ccccc1)C(C)C,MT-4,-,IIIB,>53.83 µM
COCCNC(=O)CSc1cnc(Nc2ccc(C#N)cc2)nc1Oc1c(C)cc(C#N)cc1C,MT-4,Y188L,-,0.0207 µM
CCOP(=O)(OCC)C(Cc1ccccc1)N[C@@H](Cc1ccccc1)[C@H](O)CN(CC(C)C)S(=O)(=O)c1ccc(OC)cc1,MT-4,-,IIIB,>13.25 µg/mL
CCCn1c(=O)c(C)cn([C@H]2C[C@H](N=[N+]=[N-])[C@@H](CO)O2)c1=O,MT-4,-,IIIB,>345 µM
Cc1cc(C#N)cc(C)c1Oc1nc(Nc2ccc(C#N)cc2)ncc1SCC(=O)NCc1ccc(O)cc1,MT-4,E138K,-,0.0273 µM

Again, the opening 9 rows:

CN1CSC([C@H]2[C@H](O)[C@H](n3ccc(=O)[nH]c3=O)O[C@@H]2CO)SC1 ; cells: MT-4 ; value: >100 µM
Cc1ccccc1CN1CCC(Nc2nc(Oc3c(C)cc(/C=C/C#N)cc3C)c3sccc3n2)CC1 ; cells: MT-4 ; strain or isolate: RES056 ; value: 0.829 µM
Nc1c2ccccc2nc2ccccc12 ; cells: ACH2 ; strain or isolate: Latently infected cell ; value: >50 µM
C=CCn1c(=O)c(C)cn([C@H]2C[C@H](N=[N+]=[N-])[C@@H](CO)O2)c1=O ; cells: MT-4 ; strain or isolate: IIIB ; value: 0.9 µM
C=CS(=O)(=O)N1CCCC(NS(=O)(=O)c2c(C(N)=O)[nH]c3ccc(Br)cc23)C1 ; cells: MT-4 ; strain or isolate: IIIB ; value: >40.7 µM
Cc1ccnc2c1NC(=O)c1cccnc1N2C1CC1 ; cells: MT-4 ; strain or isolate: IIIB ; value: 0.05 µM
Cc1cc(C#N)cc(C)c1Oc1ccnc(S(=O)(=O)CC(=O)Nc2ccc(C#N)cc2)n1 ; cells: MT-4 ; mutations: Y188L ; strain or isolate: IIIB ; value: 0.031 µM
O=Cc1coc2ccc(F)cc2c1=O ; cells: HTLV-I-bearing MT-4 ; strain or isolate: IIIB ; value: >40 µg/mL
Cn1c(=O)cc(Oc2nc(Nc3ccc(C#N)cc3)nc(Nc3nc4ccc([N+](=O)[O-])cc4s3)n2)c2ccccc21 ; strain or isolate: IIIB ; value: >69.28 µg/mL